Test results published in US20260124194A1 (priority 2022, published 2026).

Test system: subjects with idiopathic Chronic Intestinal Pseudo-Obstruction (CIPO)
Settings: in vivo

Structure (SMILES): CC(C)n1c(=O)c(C(=O)N[C@H]2C[C@H]3CC[C@@H](C2)N3C[C@@H](O)CN(C)S(C)(=O)=O)cc2ccccc21 [velusetrag, 1-isopropyl-2-oxo-1,2-dihydroquinoline-3-carboxylic acid {(1S,3R,5R)-8-[(R)-2-hydroxy-3-(methanesulfonyl-methyl-amino)propyl]-8-azabicyclo[3.2.1]oct-3-yl}amide]
- Orocecal transit time, mean change between Visit 3 and Visit 1: -63.0 ± 83.79 min
